Results of unrelated studies side by side (data: NIAID ChemDB).

Shared fields: tests on isolated targets; organism: HIV-1; protein: Integrase; read by: strand transfer; measure: IC50

ICn is the concentration giving n% inhibition.

SMILES | strain or isolate | result
O=Cc1cc(S(=O)(=O)c2ccc(O)c(C=O)c2)ccc1O | - | 1.3 µM
C/C=C/[C@@H]1C=C[C@@H]2C[C@H](C)CC[C@H]2[C@]1(C)/C(O)=C1/C(=O)[C@H](CO)N(C)C1=O | - | 15–20 µM
Nc1ncnc2c1ncn2C1CC(O)C(COP(=O)(O)OC2CC(n3cnc4c(N)ncnc43)OC2COP(=O)(O)O)O1 | - | 100 µM
COc1cccc2c1C(=N)c1c(O)c3c(c(O)c1C2=O)C[C@@](O)(C(C)=O)C[C@@H]3O[C@H]1C[C@H](N)[C@H](O)[C@H](C)O1 | - | 16.2 µM
O=C(O)c1c[nH]c2c([N+](=O)[O-])cccc2c1=O | - | 16.7–23.4 µM
O=c1oc2ccccc2c(O)c1C(c1ccc(N(CCCl)CCCl)cc1)c1c(O)c2ccccc2oc1=O | - | 12 µM
O=[N+]([O-])c1cc(C(F)(F)F)ccc1S(=O)(=O)c1ccccc1 | - | >100 µM
NC(N)=NS(=O)(=O)c1ccc(Nc2c3ccccc3nc3c(C(=O)NC(CO)(CO)CO)cccc23)cc1 | RF | >180 µM
Nc1ccn(C2CC(O)C(COP(=O)(O)OC3CC(n4cnc5c(N)ncnc54)OC3COP(=O)(O)OC3CC(n4ccc(N)nc4=O)OC3COP(=O)(O)O)O2)c(=O)n1 | - | 27 µM
CN1C/C(=C\c2ccc(O)c([N+](=O)[O-])c2)C(=O)/C(=C/c2ccc(O)c([N+](=O)[O-])c2)C1 | - | >100 µM
Cc1c2cc[n+](C)cc2c(C)c2c1[nH]c1ccc(O)cc12 | - | 10.3 µM
CN(C)[C@@H]1C(=O)C(C(=O)NCN2CCCC2)=C(O)[C@@]2(O)C(=O)C3=C(O)c4c(O)cccc4[C@@](C)(O)[C@H]3C[C@@H]12 | RF | 34.1 µM
O=C1Sc2ccc(Cl)cc2C(=O)N2CCSC12 | RF | 90 µM
O=C(Nc1ccc(C(=O)O)c(O)c1)c1ccc(C(=O)Nc2ccc(O)c(C(=O)O)c2)cc1 | - | 38.6–45.8 µM
N=C(N)c1ccc2cc(C#Cc3ccc(CO)cc3)ccc2c1 | - | 3.2 µM
O=S(=O)(c1ccc(F)cc1)c1ccc(F)cc1 | - | >100 µM
O=C(O)c1cc(N=Nc2ccccc2C(=O)O)ccc1O | - | 36.7–49.5 µM
O/N=C1\C(=C\c2ccc3c(c2)OCO3)CCCC1C(NO)c1ccc2c(c1)OCO2 | RF | >200 µM
Cn1c(=O)c(C(=O)NCP(=O)(O)O)c(O)c2ncc(Cc3ccc(F)cc3)cc21 | - | <0.1 µM
CC(=O)N1CCc2ccc([C@@H]3CC3c3ccc4cc(C(=N)N)ccc4c3)cc2C1C(C)C | - | 61 µM
CN(C)[C@@H]1C(=O)C(C(N)=O)=C(O)[C@@]2(O)C(=O)C3=C(O)c4c(O)cccc4[C@@](C)(O)[C@H]3C[C@@H]12 | RF | 188 µM
Nc1ccn(C2CC(OP(=O)(O)OCC3OC(n4cnc5c(N)ncnc54)CC3OP(=O)(O)OCC3OC(n4cnc5c(=O)[nH]c(N)nc54)CC3O)C(COP(=O)(O)O)O2)c(=O)n1 | - | 15 µM
CCOP(=O)(O)CNC(=O)c1c(O)c2ncc(Cc3ccc(F)cc3)cc2n(CCN2CCCC2=O)c1=O | - | <0.1 µM
COc1cc(NC(C)CCCN)c2ncccc2c1 | - | 3.62 µM
CCC(CCl)NC(=O)Nc1ccc(S(=O)(=O)c2ccc([N+](=O)[O-])cc2)cc1 | - | >100 µM
CCCCCc1cc(O)cc2c1Oc1cc(O)cc(C(=O)CCCC)c1C(=O)O2 | - | 123.7 µM
CCN(CC)Cc1cc(Nc2ccnc3cc(Cl)ccc23)ccc1O | - | >100 µM
NC(CCSSCCC(N)P(=O)(O)O)P(=O)(O)O | RF | 294 µM
N=C(N)c1ccc2cc(C#Cc3ccc4ccc(-c5ccccc5)cc4c3)ccc2c1 | - | 3.2 µM
Cn1c(=O)c(C(=O)NCCP(=O)(O)O)c(O)c2ncc(Cc3ccc(F)cc3)cc21 | - | <0.1 µM
Nc1ccn(C2CC(OP(=O)(O)OCC3OC(n4cnc5c(N)ncnc54)CC3O)C(COP(=O)(O)O)O2)c(=O)n1 | - | 13 µM
CN1CCc2ccc([C@@H]3CC3c3ccc4cc(C(=N)N)ccc4c3)cc2C1c1cccnc1 | - | 63 µM
OC1/C(=C/c2ccc(Cl)c(Cl)c2)COC/C1=C\c1ccc(Cl)c(Cl)c1 | - | >100 µM
O=c1oc2ccccc2c(O)c1C(c1ccc(Cl)cc1)c1c(O)c2ccccc2oc1=O | - | 15 µM
O=C(CCCN(C1CCCCC1)C1CCCCC1)Nc1ccc(S(=O)(=O)c2ccc(NC(=O)CCCN(C3CCCCC3)C3CCCCC3)cc2)cc1 | - | >100 µM
O=C1Sc2ccccc2C(=O)N2CCSC12 | RF | 140 µM
Nc1ccn([C@H]2C[C@H](OP(=O)(O)OC[C@H]3OC[C@@H](n4ccc(=O)[nH]c4=O)[C@@H]3O)[C@@H](COP(=O)(O)O)O2)c(=O)n1 | - | 6 µM
CCOP(=O)(O)CCNC(=O)c1c(O)c2ncc(Cc3ccc(F)cc3)cc2n(C)c1=O | - | <0.1 µM
O=C(/C=C/c1ccc(O)c(O)c1)OCCc1ccccc1 | - | 18.9 µM
O=C(C[C@@H](O)CCc1ccc(O)c(O)c1)O[C@H]1Cc2c(O)cc(O)cc2O[C@@H]1c1ccc(O)c(O)c1 | RF | 1 µM
C/C=C/[C@@H]1C=C[C@@H]2C[C@H](C)CC[C@H]2[C@]1(C)/C(O)=C1/C(=O)[C@@H](CO)N(C)C1=O | - | 7–15 µM
CCOP(=O)(CCNC(=O)c1c(O)c2ncc(Cc3ccc(F)cc3)cc2n(-c2ccc(F)cc2)c1=O)OCC | - | <0.1 µM
Cc1cn(C2CC(OP(=O)(O)OCC3OC(n4cnc5c(N)ncnc54)CC3O)C(COP(=O)(O)O)O2)c(=O)[nH]c1=O | - | 18 µM
COc1cc([C@@H]2c3cc4c(cc3[C@@H](O[C@@H]3O[C@@H]5CO[C@@H](c6cccs6)O[C@H]5[C@H](O)[C@H]3O)[C@H]3COC(=O)[C@H]23)OCO4)cc(OC)c1O | - | >100 µM
Cn1c(=O)c(C(=O)NCCCP(=O)(O)O)c(O)c2ncc(Cc3ccc(F)cc3)cc21 | - | <0.1 µM
O[C@H](c1cc(C(F)(F)F)nc2c(C(F)(F)F)cccc12)[C@@H]1CCCCN1 | - | >100 µM
Nc1nc2ccccc2[nH]1 | - | 300 µM
CCOP(=O)(CCNC(=O)c1c(O)c2ncc(Cc3ccc(F)cc3)cc2n(C)c1=O)OCC | - | <0.1 µM
O=C1/C(=C/c2cc(O)c(O)c(O)c2)CCC/C1=C\c1cc(O)c(O)c(O)c1 | - | 2.3 µM
CC(=O)Oc1ccc(S(=O)(=O)c2ccc(OC(C)=O)cc2)cc1 | - | >100 µM
COC(=O)[C@H](COC(=O)/C=C/c1ccc(OC(C)=O)c(OC(C)=O)c1)NC(=O)/C=C/c1ccc(OC(C)=O)c(OC(C)=O)c1 | - | <5 µM
CCC(CO)NC(=O)Nc1ccc(S(=O)(=O)c2ccc([N+](=O)[O-])cc2)cc1 | - | >100 µM
O=C1/C(=C/c2cc(O)c(O)c(O)c2)COC/C1=C\c1cc(O)c(O)c(O)c1 | - | 9 µM
O=C(Nc1ccccc1)C(=S)Nn1c(O)c(/C=C2\C=Nc3ccccc32)sc1=S | - | >100 µM
Cc1ccc(S(=O)(=O)c2c(C)cc(C)cc2C)cc1 | - | >100 µM

Again, the opening 3 rows:

SMILES,strain or isolate,result
O=Cc1cc(S(=O)(=O)c2ccc(O)c(C=O)c2)ccc1O,-,1.3 µM
C/C=C/[C@@H]1C=C[C@@H]2C[C@H](C)CC[C@H]2[C@]1(C)/C(O)=C1/C(=O)[C@H](CO)N(C)C1=O,-,15–20 µM
Nc1ncnc2c1ncn2C1CC(O)C(COP(=O)(O)OC2CC(n3cnc4c(N)ncnc43)OC2COP(=O)(O)O)O1,-,100 µM

a–b is a range or a potency band. Rows are shuffled and stem from different studies. Blank or dashed fields: not listed here.